Data: patent publication US11375715B2, “Long lasting disinfectant cleaning composition comprising an amne oxide/nonionic surfactant mixture” (RHODIA OPERATIONS, priority 2019, dated 2022)

Assay: ASTM D4488 wallboard cleaning test

Substance: Tristyrylphenol ethoxylate - 8EO [TSP-8EO]
- effect on cleaning performance of adding nonionic surfactant to Formulation A (added to Formulation A at 0.5% actives, FIG. 7): dramatic improvement in cleaning performance
- effect on cleaning performance of adding surfactant to Formulation A (different levels added to Formulation A, pH 4.5, FIG. 4): drastically improves cleaning at levels above 0.5%
